Test results from patent US10752933B2, “Methods for the identification, characterization, and use of inhibitors of the fructose-asparagine utilization pathway” (priority 2015, dated 2020).
Where “and” joins values, the source holds several entries; their conditions need not be identical. Equal values may be shown once.

Key:
Format in all cases: cell-based, Salmonella enterica serovar Typhimurium
ΔfraB::kan (HMB206) = experiment: Mass spectrometry measurement of intracellular 6-P-F-Asp, fraB mutant
[1] = system: Salmonella wild-type (14028); experiment: Mass spectrometry measurement of intracellular 6-P-F-Asp, wild-type; settings: * below 20 nmol, lowest standard
[2] = system: Δfra island deletion (HMB215); experiment: Mass spectrometry measurement of intracellular 6-P-F-Asp, fra island deletion; settings: * below 20 nmol, lowest standard
[3] = transition m/z 376→125, after 30 min in 5 mM F-Asn
[4] = transition m/z 376→125, three replicates
[5] = transition m/z 376→242, after 30 min in 5 mM F-Asn
[6] = transition m/z 376→242, three replicates

6-phosphofructose-aspartate [6-P-F-Asp]
6-P-F-Asp, replicate (ΔfraB::kan (HMB206); [3]): 80 nmol and 110 nmol and 100 nmol | 6-P-F-Asp, average (ΔfraB::kan (HMB206); [4]): 100 nmol | 6-P-F-Asp, replicate (ΔfraB::kan (HMB206); [5]): 80 nmol and 93 nmol and 89 nmol | 6-P-F-Asp, average (ΔfraB::kan (HMB206); [6]): 87 nmol | 6-P-F-Asp, replicate [1, 3]: 8.54* nmol and 8.51* nmol (2×) | 6-P-F-Asp, average [1, 4]: 8.52* nmol | 6-P-F-Asp, replicate [1, 5]: 10.44* nmol and 10.45* nmol (2×) | 6-P-F-Asp, average [1, 6]: 10.45* nmol | 6-P-F-Asp, replicate [2, 3]: 8.50* nmol and 8.53* nmol (2×) | 6-P-F-Asp, average [2, 4]: 8.52* nmol | 6-P-F-Asp, replicate [2, 5]: 10.48* nmol and 10.46* nmol and 10.45* nmol | 6-P-F-Asp, average [2, 6]: 10.46* nmol
